# Genome-wide point mutation profile of HIV-1: Vpu

The measurements come from Al-Mawsawi et al. 2014 (doi:10.1186/s12977-014-0124-6).

Protein: Vpu of HIV-1 NL4-3, numbered from its first residue. The source prints no sequence; the chain below is taken from UniProt P05923, a closely related isolate, with 3 of its residues set to the source's, and fits the source at the 74 positions it covers.
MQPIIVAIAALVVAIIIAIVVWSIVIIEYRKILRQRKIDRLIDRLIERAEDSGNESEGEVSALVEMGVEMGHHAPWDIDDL
"Other frame" gives the effect on an overlapping gene as the source lists it; other overlaps (genes, RNA elements) are not shown.

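Seven fragments of pNL4-3 were mutated by error-prone PCR, and each virus pool was passaged in CEM T cells. The RC index is the frequency of a change after passage round 2 divided by its frequency in the plasmid library.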

A higher RC index is a better tolerated change; approximate classes are lethal up to 0.1, attenuated to 0.2, tolerated above.
A change reads original residue, position, new residue.
Input reads are the counts in the plasmid library.

| mutation | base | other frame | input reads | replication capacity index |
|---|---|---|---|---|
| M1K | T6062A | none | 280 | 0.0371 |
| Q2H | A6066T | none | 249 | 0.0667 |
| P3H | C6068A | none | 341 | 0.103 |
| P3L | C6068T | none | 202 | 0.288 |
| I4K | T6071A | none | 402 | 0.0671 |
| I4T | T6071C | none | 165 | 0.0629 |
| I5V | A6073G | none | 241 | 0.904 |
| I5T | T6074C | none | 181 | 0.0918 |
| I5M | A6075G | none | 242 | 0.0515 |
| V6L | G6076C | none | 87 | 0.0716 |
| A7P | G6079C | none | 80 | 0.104 |
| A7S | G6079T | none | 135 | 0.0923 |
| A7V | C6080T | none | 276 | 0.165 |
| I8V | A6082G | none | 328 | 0.0190 |
| I8L | A6082T | none | 425 | 0.703 |
| I8K | T6083A | none | 263 | 0.0710 |
| A10P | G6088C | none | 95 | 0.0874 |
| A10G | C6089G | none | 30 | 0.138 |
| L11I | T6091A | none | 258 | 0.105 |
| L11V | T6091G | none | 52 | 0.120 |
| V12L | G6094C | none | 86 | 0.0724 |
| V12L | G6094T | none | 68 | 0.183 |
| V12A | T6095C | none | 229 | 2.06 |
| V13I | G6097A | none | 247 | 0.345 |
| V13L | G6097C | none | 82 | 0.0760 |
| V13L | G6097T | none | 162 | 0.0769 |
| A14T | G6100A | none | 416 | 0.175 |
| A14P | G6100C | none | 137 | 0.773 |
| A14G | C6101G | none | 39 | 0.479 |
| I15L | A6103T | none | 402 | 0.150 |
| I15T | T6104C | none | 258 | 0.539 |
| I15M | A6105G | none | 123 | 0.0506 |
| I16V | A6106G | none | 256 | 0.0973 |
| I16T | T6107C | none | 93 | 0.179 |
| I16M | A6108G | none | 116 | 0.0895 |
| I17K | T6110A | none | 210 | 0.208 |
| I17T | T6110C | none | 252 | 0.115 |
| A18S | G6112T | none | 203 | 0.164 |
| I19L | A6115T | none | 367 | 0.0396 |
| I19K | T6116A | none | 353 | 0.923 |
| I19T | T6116C | none | 163 | 0.0764 |
| I19M | A6117G | none | 242 | 0.0944 |
| V20L | G6118C | none | 150 | 0.0415 |
| V21E | T6122A | none | 327 | 0.0381 |
| W22L | G6125T | none | 141 | 0.206 |
| W22C | G6126C | none | 112 | 0.0371 |
| W22C | G6126T | none | 39 | 0.639 |
| S23T | T6127A | none | 142 | 0.0292 |
| S23F | C6128T | none | 89 | 0.770 |
| I24L | A6130T | none | 389 | 0.368 |
| I24K | T6131A | none | 197 | 0.0527 |
| I24M | A6132G | none | 217 | 0.364 |
| V25E | T6134A | none | 264 | 3.21 |
| I26T | T6137C | none | 185 | 0.146 |
| I27L | A6139T | none | 322 | 0.857 |
| I27K | T6140A | none | 186 | 0.134 |
| E28D | A6144T | none | 709 | 0.0363 |
| Y29H | T6145C | none | 277 | 0.107 |
| Y29C | A6146G | none | 442 | 0.0359 |
| Y29F | A6146T | none | 599 | 0.0397 |
| R30S | G6150T | none | 58 | 0.478 |
| K31E | A6151G | none | 758 | 0.528 |
| K31R | A6152G | none | 754 | 0.0552 |
| I32L | A6154T | none | 886 | 4.84 |
| I32T | T6155C | none | 356 | 0.0556 |
| L33I | T6157A | none | 340 | 0.0350 |
| L33S | T6158C | none | 421 | 0.0659 |
| R34S | A6162C | none | 39 | 0.102 |
| Q35L | A6164T | none | 673 | 0.0942 |
| Q35H | A6165T | none | 558 | 0.0497 |
| R36G | A6166G | none | 386 | 0.190 |
| K37R | A6170G | none | 326 | 0.0405 |
| I38V | A6172G | none | 184 | 0.0308 |
| I38T | T6173C | none | 202 | 0.0840 |
| D39N | G6175A | none | 131 | 0.389 |
| D39Y | G6175T | none | 159 | 0.0593 |
| L41S | T6182C | none | 172 | 0.285 |
| I42F | A6184T | none | 294 | 0.276 |
| I42N | T6185A | none | 230 | 0.0820 |
| D43V | A6188T | none | 395 | 0.607 |
| R44I | G6191T | none | 184 | 0.113 |
| I46L | A6196T | none | 380 | 0.0149 |
| R48G | A6202G | none | 102 | 0.185 |
| R48K | G6203A | none | 194 | 0.525 |
| A49S | G6205T | none | 173 | 0.0654 |
| E50D | A6210T | none | 318 | 0.0475 |
| D51N | G6211A | none | 100 | 0.698 |
| D51H | G6211C | none | 44 | 0.129 |
| D51V | A6212T | none | 141 | 0.120 |
| S52C | A6214T | none | 377 | 0.0350 |
| S52R | T6216A | none | 350 | 0.0539 |
| G53S | G6217A | none | 185 | 0.235 |
| G53R | G6217C | none | 103 | 0.0366 |
| G53D | G6218A | none | 475 | 0.199 |
| N54D | A6220G | none | 350 | 0.0593 |
| S56G | A6226G | Env silent | 314 | 0.0661 |
| E57K | G6229A | Env silent | 161 | 0.633 |
| S61P | T6241C | Env silent | 170 | 0.0777 |
| L63P | T6248C | Env silent | 276 | 0.103 |
| V68M | G6262A | Env silent | 403 | 0.117 |
| V68L | G6262T | Env silent | 79 | 0.0478 |
| P75S | C6283T | Env silent | 189 | 0.0867 |
| D77Y | G6289T | Env silent | 45 | 0.885 |
| L81M | C6301A | Env silent | 380 | 0.129 |

Excerpt, the final 5 entries:

{"mutation": "V68M", "base": "G6262A", "other frame": "Env silent", "input reads": "403", "replication capacity index": 0.117}
{"mutation": "V68L", "base": "G6262T", "other frame": "Env silent", "input reads": "79", "replication capacity index": 0.0478}
{"mutation": "P75S", "base": "C6283T", "other frame": "Env silent", "input reads": "189", "replication capacity index": 0.0867}
{"mutation": "D77Y", "base": "G6289T", "other frame": "Env silent", "input reads": "45", "replication capacity index": 0.885}
{"mutation": "L81M", "base": "C6301A", "other frame": "Env silent", "input reads": "380", "replication capacity index": 0.129}

Base changes are numbered along pNL4-3.
An index over 1, which the authors read as above wild type, was rare (1.9% of all changes in the genome).
Since each clone held several changes (about five per kb), neutral changes can read low.